From article PMC6429159, “Evolution and Biological Evaluation of Matrinic Derivatives with Amantadine Fragments As New Anti-Influenza Virus Agents” (Molecules, 2019) come the findings set out here.

Counter-ions that a name gives are not always drawn. Like-named read-outs stand apart in the source and are kept apart here.

The test system of data set [1] is influenza virus A/hanfang/359/95 (H3N2). Type of data set: cell-based.
Data set [2] deals with influenza virus A/Fort Monmouth/1/1947 (H1N1). Type of data set: cell-based.

For `CCCC[C@@H]1[C@H]2CCCN3CCC[C@@H](CN1S(=O)(=O)c1ccc(C(F)(F)F)cc1)[C@@H]23` [Compound 7a], the “H3N2, A/hanfang/359/95 SI” value in data set [1] turned out to be 3.8.

Take `CCCC[C@@H]1[C@H]2CCCN3CCC[C@@H](CN1S(=O)(=O)c1cccc(C(F)(F)F)c1)[C@@H]23` [Compound 7b]: the “H3N2, A/hanfang/359/95 SI” value in data set [1] turned out to be 3.0.

For `CCCC[C@@H]1[C@H]2CCCN3CCC[C@@H](CN1S(=O)(=O)c1ccccc1C(F)(F)F)[C@@H]23` [Compound 7c], the “H3N2, A/hanfang/359/95 SI” value in data set [1] turned out to be 1.7.

As to `O=C(OCCCC[C@@H]1[C@H]2CCCN3CCC[C@@H](CN1S(=O)(=O)c1ccc(C(F)(F)F)cc1)[C@@H]23)C12CC3CC(CC(C3)C1)C2` [Compound 9a, 12N-p-Trifluoromethlybenzenesulfonyl matrinic butyl adamantine-1’-carboxylate hydrochloride], in data set [1], the “H3N2, A/hanfang/359/95 SI” value amounted to 1.2.

As for `O=C(CC12CC3CC(CC(C3)C1)C2)OCCCC[C@@H]1[C@H]2CCCN3CCC[C@@H](CN1S(=O)(=O)c1ccc(C(F)(F)F)cc1)[C@@H]23` [Compound 9b, 12N-p-Trifluoromethlybenzenesulfonyl matrinic butyl-1’-adamantaneacetatehydrochloride], the “H3N2, A/hanfang/359/95 SI” value in data set [1] worked out at 2.2.

Turning to `O=C(OCCCC[C@@H]1[C@H]2CCCN3CCC[C@@H](CN1S(=O)(=O)c1ccc(C(F)(F)F)cc1)[C@@H]23)C12CC3CC(CC(Br)(C3)C1)C2` [Compound 9c, 12N-p-Trifluoromethlybenzenesulfonylmatrinicbutyl-3’-bromoadamantane-1’-carboxylate hydrochloride], the “H3N2, A/hanfang/359/95 SI” value in data set [1] is on record as 9.0. Further, in data set [2], the “H1N1, A/Fort Monmouth/1/1947 SI” value came to 2.7.

As to `O=C(OCCCC[C@@H]1[C@H]2CCCN3CCC[C@@H](CN1S(=O)(=O)c1cccc(C(F)(F)F)c1)[C@@H]23)C12CC3CC(CC(C3)C1)C2` [Compound 9d, 12N-m-Trifluoromethlybenzenesulfonyl matrinic butyl adamantine-1’-carboxylate hydrochloride], in data set [1], the “H3N2, A/hanfang/359/95 SI” value was determined as 9.2. Moreover, the “H1N1, A/Fort Monmouth/1/1947 SI” value in data set [2] is 2.5.

Regarding `O=C(CC12CC3CC(CC(C3)C1)C2)OCCCC[C@@H]1[C@H]2CCCN3CCC[C@@H](CN1S(=O)(=O)c1cccc(C(F)(F)F)c1)[C@@H]23` [Compound 9e, 12N-m-Trifluoromethlybenzenesulfonyl matrinic butyl-1’-adamantaneacetatehydrochloride], the “H3N2, A/hanfang/359/95 SI” value in data set [1] turned out to be 5.7.

In the case of `O=C(OCCCC[C@@H]1[C@H]2CCCN3CCC[C@@H](CN1S(=O)(=O)c1cccc(C(F)(F)F)c1)[C@@H]23)C12CC3CC(CC(Br)(C3)C1)C2` [Compound 9f, 12N-m-Trifluoromethlybenzenesulfonylmatrinicbutyl-3’-bromoadamantane-1’-carboxylate hydrochloride], the “H3N2, A/hanfang/359/95 SI” value in data set [1] (selectivity index = TC50/IC50) came to 10.6. For the same compound, the “H1N1, A/Fort Monmouth/1/1947 SI” value in data set [2] (selectivity index = TC50/IC50) was 3.2.

Turning to `O=C(CC1CC2CCC1C2)OCCCC[C@@H]1[C@H]2CCCN3CCC[C@@H](CN1S(=O)(=O)c1ccc(C(F)(F)F)cc1)[C@@H]23` (stereo partly shown) [Compound 9i, 12N-p-Trifluoromethlybenzenesulfonyl matrinic butyl-2’-norbornane acetate hydrochloride], the “H3N2, A/hanfang/359/95 SI” value in data set [1] was 5.0.

On to `O=C(CC1CC2CCC1C2)OCCCC[C@@H]1[C@H]2CCCN3CCC[C@@H](CN1S(=O)(=O)c1cccc(C(F)(F)F)c1)[C@@H]23` (stereo partly shown) [Compound 9j, 12N-m-Trifluoromethlybenzenesulfonyl matrinic butyl-2’-norbornane acetate hydrochloride], for which the “H3N2, A/hanfang/359/95 SI” value in data set [1] (selectivity index = TC50/IC50) was 10.8. In addition, the “H1N1, A/Fort Monmouth/1/1947 SI” value in data set [2] (selectivity index = TC50/IC50) came to 4.9.

`CC(C)(C)C(=O)OCCCC[C@@H]1[C@H]2CCCN3CCC[C@@H](CN1S(=O)(=O)c1cccc(C(F)(F)F)c1)[C@@H]23` [Compound 9l, 12N-m-Trifluoromethlybenzenesulfonyl matrinicbutylpivalate hydrochloride]: the “H3N2, A/hanfang/359/95 SI” value in data set [1] is 2.9.
